Anti-infective test results gathered from many reports (values: NIAID ChemDB through PubChem).

Shared fields: whole-cell or culture tests; organism: HIV-1; read by: cytopathic effect / MTT; endpoint: EC50

An empty or dashed field is not shown.

smiles	cell line	strain or isolate	result
O=C(O)/C(O)=C/c1ccc(CCc2ccccc2)cn1	MT-4	IIIB	>74 µM
CCOC(=O)CCCCn1c(Cc2ccccc2)c(C(C)C)c(=O)[nH]c1=O	MT-4	IIIB	38 µM
C=C(C)[C@@H]1CC[C@]2(C(=O)NCCCCCCCC(=O)N[C@@H](CC(C)C)[C@@H](O)CC(=O)O)CC[C@]3(C)[C@H](CC[C@@H]4[C@@]5(C)CC[C@H](O)C(C)(C)[C@@H]5CC[C@]43C)[C@@H]12	C8166	IIIB	0.27 µM
CN(C)CC1Cn2c3ccccc3c3c2c(c(C#N)c(=O)n3-c2ccc([N+](=O)[O-])cc2)O1	MT-4	LAI	0.16 µM
CC(C)CN(C[C@@H](O)[C@H](Cc1ccccc1)NC(=O)O[C@H]1CCOC1)S(=O)(=O)c1ccc2nc(NC(=O)NCCN(C)C)[nH]c2c1	MT-4	LAI WT	0.794 µM
O/C(=C\c1cc(CCc2ccccc2)ncn1)c1ccccn1	MT-4	IIIB	>12.5 µg/mL
N#CCN1c2ccccc2C2C1C=C(C#N)C(=O)N2c1ccc([N+](=O)[O-])cc1	MT-4	LAI	<1 µM
CC(C)CN(C[C@@H](O)[C@H](Cc1ccccc1)NC(=O)OCc1cccnc1)S(=O)(=O)c1ccc2nc(N)[nH]c2c1	MT-4	LAI WT	1.585 µM
COc1ccc(Nc2nc3cc(C(F)(F)F)ccc3n3cccc23)cc1OC	MT-4	-	>27 µM
CC(=O)Nc1sc(Br)cc1S(=O)(=O)c1ccc(Cl)cc1	CEM + CEM/O	IIIB	>200 µg/mL
CC1=C[C@@H]2[C@@H]3C(=O)N(NC(=S)Nc4ccccc4)C(=O)[C@@H]3[C@H]1C[C@@H]2C(C)C	MT-4	IIIB	>48 µM
Cc1cc([N+](=O)[O-])cc(C)c1OCC(=O)N[C@@H](Cc1ccccc1)[C@H](O)CN(CC(C)C)S(=O)(=O)c1ccc2c(c1)ncn2CCN(C)C	MT-4	LAI WT	1.995 µM
Nc1ccn([C@@H]2O[C@H](CO)C=C2F)c(=O)n1	-	xxBRU	<8 µM
O=C(O)/C(O)=C/c1cc(CCc2ccccc2)ccn1	MT-4	IIIB	>74 µM
N#Cc1c2c3c(c4ccccc4n3CC(CN3CCCCC3)O2)n(-c2ccc([N+](=O)[O-])cc2)c1=O	MT-4	LAI	0.27 µM
O/C(=C\c1cc(CCc2ccccc2)ncn1)c1cccnc1	MT-4	IIIB	>12.5 µg/mL
N#CC1=CC2C(c3ccccc3N2CCCCN2CCCC2)N(c2ccc([N+](=O)[O-])cc2)C1=O	MT-4	LAI	<1 µM
CC(C)c1c(Cc2ccccc2)n(CCCCC(N)=O)c(=O)[nH]c1=O	MT-4	IIIB	6.9 µM
CCn1cc(C(=O)O)c(=O)c2cc(F)c(N3CCN(c4ccccc4OC)CC3)c(OC(F)F)c21	CEM	IIIB	0.2 µM
N#Cc1c2c3c(c4ccccc4n3CC(CN3CCCC3)O2)n(-c2ccc([N+](=O)[O-])cc2)c1=O	MT-4	LAI	0.34 µM
CC1=C(C)[C@]2(C)C(C)[C@@]1(C)[C@@H]1C(=O)N(N)C(=O)[C@@H]12	MT-4	IIIB	>100 µM
CCOC(=O)c1ccc(OCc2nc3cc(C(F)(F)F)ccc3n3cccc23)cc1	MT-4	-	>100 µM
CC(C)c1c(Cc2ccccc2)n(CCCC(N)=O)c(=O)[nH]c1=O	MT-4	IIIB	2.2 µM
CC(C)CN(C[C@@H](O)[C@H](Cc1ccccc1)NC(=O)O[C@H]1CCOC1)S(=O)(=O)c1ccc2nc[nH]c2c1	MT-4	LAI WT	0.079 µM
Cc1cn([C@H]2C[C@H](N=[N+]=[N-])[C@@H](CO)O2)c(=O)[nH]c1=O	MT-4	IIIB X4	0.013 µM
COC(=O)Nc1nc2ccc(S(=O)(=O)N(CC(C)C)C[C@@H](O)[C@H](Cc3ccccc3)NC(=O)c3ccc(O)cc3C)cc2[nH]1	MT-4	LAI WT	0.079 µM
O=C(O)/C(O)=C/c1cc(OCc2ccccc2)ncn1	MT-4	IIIB	4.4 µM
CC(C)c1c(Cc2ccccc2)n(CCCO)c(=O)[nH]c1=O	MT-4	IIIB	4.2 µM
CC1=C[C@@H]2[C@@H]3C(=O)N(N)C(=O)[C@@H]3[C@H]1C[C@@H]2C(C)C	MT-4	IIIB	>100 µM
Cc1cccc(C)c1OCC(=O)N[C@@H](Cc1ccccc1)[C@H](O)CN(CC(C)C)S(=O)(=O)c1ccc2nc(N)[nH]c2c1	MT-4	LAI WT	0.316 µM
COC(=O)c1ccccc1S(=O)(=O)c1ccsc1NC(=O)C(F)(F)F	CEM + CEM/O	IIIB	>20 µg/mL
COc1ccc(NC(=O)NN2C(=O)[C@H]3[C@H]4C=C(C)[C@H](C[C@@H]4C(C)C)[C@H]3C2=O)cc1	MT-4	IIIB	>46 µM
COc1ccc(OCc2nc3cc(C(F)(F)F)ccc3n3cccc23)cc1	MT-4	-	>52 µM
COc1ccc(C(=O)Nc2nc3ccc(S(=O)(=O)N(CC(C)C)C[C@@H](O)[C@H](Cc4ccccc4)NC(=O)COc4c(C)cccc4C)cc3[nH]2)cc1	MT-4	LAI WT	0.126 µM
CN1CCn2c3ccccc3c3c2c1c(C#N)c(=O)n3-c1ccc([N+](=O)[O-])cc1	MT-4	LAI	1.88 µM
O=C(O)/C(O)=C/c1cccc(OCc2ccccc2)n1	MT-4	IIIB	>74 µM
COc1ccc(-c2nc(-c3ccc(N4C(=O)C=CC5C4c4ccccc4N5C)cc3)no2)cc1OC	MT-4	LAI	1–32 µM
O=C(Nc1sccc1S(=O)(=O)c1ccc(F)cc1)C(F)(F)F	CEM + CEM/O	IIIB	>1.6 µg/mL
O=C(O)c1ccc(Nc2nc3ccccc3n3cccc23)cc1	MT-4	-	>100 µM
CC(C)c1c(Cc2ccccc2)n(CC(N)=O)c(=O)[nH]c1=O	MT-4	IIIB	10 µM
CC(C)CN(C[C@@H](O)[C@H](Cc1ccccc1)NC(=O)OC1COC2OCCC12)S(=O)(=O)c1ccc2nc[nH]c2c1	MT-4	LAI WT	0.126 µM
CC(=O)Nc1sc([N+](=O)[O-])cc1S(=O)(=O)c1ccc(Cl)cc1	CEM + CEM/O	IIIB	>0.32 µg/mL
O=C(O)/C(O)=C/c1cc(OCc2ccccc2)ccn1	MT-4	IIIB	>13.8 µM
CN1c2ccccc2C2C1C=C(C#N)C(=O)N2c1cccc([N+](=O)[O-])c1	MT-4	LAI	<1 µM
COC(=O)CC(=O)Nc1sccc1S(=O)(=O)c1ccc(C)cc1	CEM + CEM/O	IIIB	>40 µg/mL

Repeating the final 2 entries:

smiles | cell line | strain or isolate | result
CN1c2ccccc2C2C1C=C(C#N)C(=O)N2c1cccc([N+](=O)[O-])c1 | MT-4 | LAI | <1 µM
COC(=O)CC(=O)Nc1sccc1S(=O)(=O)c1ccc(C)cc1 | CEM + CEM/O | IIIB | >40 µg/mL

Conditions beyond the fields shown may differ between rows. ECn is the concentration giving n% inhibition of infection, replication or growth. a–b is a range or a potency band.